The text below walks through data of article PMC9325719 (Nature Communications, 2022).

The assay has as its target Na+-NQR (Na+-pumping NADH-ubiquinone oxidoreductase), inhibitor site at NqrB N-terminal region (Vibrio cholerae, UniProt A5F5X0, E157A). The note with it: substrates NADH and ubiquinone-1; 50% inhibition not reached at highest concentration; mutant activity 50-60% lower than wild type.

Substance aurachin D-42 gave an IC50 of more than 2000 nM.

The IC50 is the concentration at which inhibition is half-maximal. Low values mean greater potency in that assay, high ones weaker potency in that assay.
